Experimental data taken from paper PMC10377513, “Goldilocks Dilemma: LPS Works Both as the Initial Target and a Barrier for the Antimicrobial Action of Cationic AMPs on E. coli” (Biomolecules, 2023).
Residues, ends and D or L forms follow the SMILES beside them.

Legend:
[1] = system: E. coli ATCC 25922 lysate; assay: NMR line shape analysis with sonicated cell lysate; format: binding; details: fit parameter of Equation (6)
Protocol: NMR spectra were acquired on a Bruker Avance III HD spectrometer operating at 600 MHz for ^1H, equipped with an inverse TCl cryo probe. All NMR spectra were acquired at 298 K using 5 mm tubes using standard pulse programs.
E. coli strains ATCC 25922, CCUG 70662, and NR 698 were grown until OD600 ≈ 0.6–0.8 in standard Lysogeny Broth at 37 °C from overnight colonies on agar plates. This allowed bacterial cultures to reach an exponential state of growth. CCUG 70662 was cultivated with and without 4 µg/mL of colistin in both agar and broth to allow for modification of the lipid A part of LPS [33]. After that, cells were carefully centrifuged by 6000× g for 10 min, the supernatant was discarded, and the cell pellet was resuspended in 10 mM Tris buffer with 100 mM NaCl and pH 7.4. The process was repeated two more times to wash out broth components and leftover colistin. Cells were then resuspended in 1 mL of Tris buffer, and OD600 was checked by dilution of 100 µL of the sample. The number of cells was estimated from OD600 of the sample using the formulation presented by Beal et al. (2022). Furthermore, lipid concentration was estimated to be 50 mmol per bacterial cell. The part of samples was diluted to OD = 1 in Tris buffer, and zeta potential was measured on Malvern Zetasizer Nano (Malvern Ins., Malvern, UK). The concentrated cell sample was then titrated (from 5 to 160 µL) into the 500 µL of peptide (1 mg/mL) in Tris buffer with 5% D2O and ^1H spectra was collected using double solvent suppression with excitation sculpting and presaturation (zqesgppepr) with extended delay d1 = 8 s to allow for complete relaxation of nuclei.
Due to the nature of interaction and the invisibility of the bound state line, the width ratio was estimated from the fit, and it was used for all proton signals. This value was different for each combination of AMP and bacterial sample, and it is noted in the Supplementary Materials.
For the live cell NMR, the same E. coli strains as for the MIC testing (see above) were used. In addition, the ATCC 25922 cell lysate was used to observe the effect the release of intracellular components has on peptide binding. To measure the initial AMP:bacterial cell binding, we titrated an increasing number of cells into a known and fixed concentration of AMP and monitored the signal attenuation of the peptide (Figure 4A,B). From this, we have extracted the KD for each AMP towards the bacteria using the method developed by Shortridge et al. (2008) (Figure 4C), which allows us to estimate the binding affinity based on signal broadening (see Section 2).

[2] = 1D 1H NMR line shape analysis, liposome titration; format: binding; details: DMPC liposomes; fit parameter of Equation (6), used for all proton signals

Compound	γB/γF-1 ratio (line widths of bound and free AMP, from fit) [1]	γB/γF-1 ratio (line widths of bound and free AMP, from fit) [2]
CC(C)C[C@@H]1NC(=O)[C@@H](CCCNC(=N)N)NC(=O)[C@H](CCCCN)NC(=O)[C@H](CC(N)=O)NC(=O)[C@@H](Cc2c[nH]c3ccccc23)NC(=O)[C@H](Cc2c[nH]c3ccccc23)NC1=O [c(LWwNKr)] (HELM PEPTIDE1{L.W.[dW].N.K.[dR]}$PEPTIDE1,PEPTIDE1,1:R1-6:R2$$$V2.0)	0.035	7.830
NCCCC[C@@H]1NC(=O)[C@H](Cc2c[nH]c3ccccc23)NC(=O)[C@H](CCCCN)NC(=O)[C@H](Cc2c[nH]c3ccccc23)NC(=O)[C@H](CCCCN)NC(=O)[C@H](Cc2c[nH]c3ccccc23)NC1=O [c(WKWKWK)] (HELM PEPTIDE1{W.K.W.K.W.K}$PEPTIDE1,PEPTIDE1,1:R1-6:R2$$$V2.0)	0.044	7.127
N=C(N)NCCC[C@@H]1NC(=O)[C@H](Cc2c[nH]c3ccccc23)NC(=O)[C@H](CCCNC(=N)N)NC(=O)[C@H](Cc2c[nH]c3ccccc23)NC(=O)[C@H](CCCNC(=N)N)NC(=O)[C@H](Cc2c[nH]c3ccccc23)NC1=O [c(WRWRWR)] (HELM PEPTIDE1{W.R.W.R.W.R}$PEPTIDE1,PEPTIDE1,1:R1-6:R2$$$V2.0)	0.275	2.900
NCCCC[C@@H]1NC(=O)[C@H](CCCCN)NC(=O)[C@H](Cc2c[nH]c3ccccc23)NC(=O)[C@H](Cc2c[nH]c3ccccc23)NC(=O)[C@H](Cc2c[nH]c3ccccc23)NC(=O)[C@H](CCCCN)NC1=O [c(WWWKKK)] (HELM PEPTIDE1{W.W.W.K.K.K}$PEPTIDE1,PEPTIDE1,1:R1-6:R2$$$V2.0)	0.225	0.297
N=C(N)NCCC[C@@H]1NC(=O)[C@H](CCCNC(=N)N)NC(=O)[C@H](Cc2c[nH]c3ccccc23)NC(=O)[C@H](Cc2c[nH]c3ccccc23)NC(=O)[C@H](Cc2c[nH]c3ccccc23)NC(=O)[C@H](CCCNC(=N)N)NC1=O [c(WWWRRR)] (HELM PEPTIDE1{W.W.W.R.R.R}$PEPTIDE1,PEPTIDE1,1:R1-6:R2$$$V2.0)	0.216	0.247
